Reference: article PMC12066977, “Alkyl Tail Variation on Chalcone‐Based Quaternary Pyridinium Salts as Rule‐of‐Thumb for Antimicrobial Activity” (Archiv Der Pharmazie, 2025)

Legend:
C. albicans ATCC 10231 = test: Broth microdilution antimicrobial assay (MIC, IC50); assay type: cell-based, Candida albicans; settings: Selectivity index SI = CC50 (Vero cells)/IC50
Protocol: (§1) Reference strains of Staphylococcus aureus (ATCC 25923), Escherichia coli (ATCC 25922), and Candida albicans (ATCC 10231) were used in this study as microbial models. These strains were purchased from the American Type Culture Collection (ATCC); bacterial cultures were routinely grown on 5% blood agar plate, while fungal cultures on Sabouraud Dextrose Agar (Biolife […]., Milan, Italy). […] In short, microbial inocula were prepared at 0.5 McFarland in PBS and, subsequently, bacterial suspensions were diluted 1:200 in Mueller-Hinton broth (Sigma-Aldrich, St. Louis, MO, USA), while fungal inoculum was diluted 1:20 in RPMI-1640 medium (Gibco®, ThermoFisher Scientific Inc., Waltham, MA, USA), containing glucose 2%, 0.3% levo-glutamine buffered to pH 7.0 with 0.165 M 3-(N-morpholino) propanesulfonic acid (MOPS). A total of 100 μL of these microbial suspensions was introduced into a 96-well microplate and incubated with 100 μL of the compounds, two-fold serially diluted in the range of 100-0.19 μM. Positive controls (microbial suspensions in regular media), negative controls (only compounds), and solvent controls (microbial suspensions incubated with DMSO dilutions) were included in the tests. The plate was incubated at 37°C for 24 h, and subsequently the optical density at 630 nm (OD630nm) was spectrophotometrically measured. Experiments were carried out in triplicate in three biological replicates. […] Statistical analysis was carried out by using GraphPad Prism version 9.4.1 for Windows (GraphPad Software, San Diego, California USA, www.graphpad.com). ^a MIC (Minimum Inhibitory Concentration) were determined in vitro by means of a standardized microdilution assay, in compliance with the Clinical and laboratory Standard Institute (CLSI) guidelines (30). Microbial suspensions were prepared at 0.5 McFarland in PBS, then diluted in the media and transferred in a 96 micro-well plate together with the serially 2-fold dilutions of the compounds. After 24h of incubation at 37°C, microbial growths were evaluated by measuring the Optical Density at 600 nm, then percentage values were obtained as relative to the positive controls (microbial suspensions in regular media).

S. aureus ATCC 25923 = test: as above; assay type: cell-based, Staphylococcus aureus; settings: Selectivity index SI = CC50 (Vero cells)/IC50
Protocol: as §1

[1] = test system: S. aureus ATCC 25923, E. coli ATCC 25922, C. albicans ATCC 10231; test: Broth microdilution antimicrobial assay, statements pooled over the three strains; assay type: cell-based; settings: SI = CC50 (Vero cells)/IC50; stated over S. aureus, E. coli and C. albicans together
Protocol: The antimicrobial activity of the compounds was assessed by determining the Minimum Inhibitory Concentration (MIC) by a well‐established broth microdilution procedure in microtiter plates and in compliance with the Clinical and Laboratory Standards Institute (CLSI) guidelines.
In short, microbial inocula were prepared at 0.5 McFarland in PBS and, subsequently, bacterial suspensions were diluted 1:200 in Mueller–Hinton broth (Sigma‐Aldrich, St. Louis, MO, USA), while fungal inoculum was diluted 1:20 in RPMI‐1640 medium (Gibco®, ThermoFisher Scientific Inc., Waltham, MA, USA), containing glucose 2%, 0.3% levo‐glutamine buffered to pH 7.0 with 0.165 M 3‐(N‐morpholino) propanesulfonic acid (MOPS). A total of 100 µL of these microbial suspensions was introduced into a 96‐well microplate and incubated with 100 µL of the compounds, two‐fold serially diluted in the range of 100–0.19 µM. Positive controls (microbial suspensions in regular media), negative controls (only compounds), and solvent controls (microbial suspensions incubated with DMSO dilutions) were included in the tests. The plate was incubated at 37°C for 24 h, and subsequently the optical density at 630 nm (OD630nm) was spectrophotometrically measured. Experiments were carried out in triplicate in three biological replicates. […]

E. coli ATCC 25922 = test: Broth microdilution antimicrobial assay (MIC, IC50); assay type: cell-based, Escherichia coli; settings: Selectivity index SI = CC50 (Vero cells)/IC50
Protocol: as §1

Compound | SI Candida albicans (C. albicans ATCC 10231) | SI Staphylococcus aureus (S. aureus ATCC 25923) | SI values for the different species [1] | SI Escherichia coli (E. coli ATCC 25922)
C#CCOc1ccc(C(=O)/C=C/c2ccc[n+](CCCCCCCCCCCCCC)c2)c(OCC#C)c1.[Br-] [Compound 6, (E)‐3‐{3‐[2,4‐Bis(prop‐2‐yn‐1‐yloxy)phenyl]‐3‐oxoprop‐1‐en‐1‐yl}‐1‐tetradecylpyridin‐1‐ium bromide] | 4.7 | 4.7 |  | 
C#CCOc1ccc(C(=O)/C=C/c2ccc[n+](CCCCCCCCCC)c2)c(OCC#C)c1.[Br-] [Compound 4, (E)‐3‐{3‐[2,4‐Bis(prop‐2‐yn‐1‐yloxy)phenyl]‐3‐oxoprop‐1‐en‐1‐yl}‐1‐decylpyridin‐1‐ium bromide] | 3.0 | 15.3 | 2.4 to 15.3 | 2.9
C#CCOc1ccc(C(=O)/C=C/c2ccc[n+](CCCCCCCC)c2)c(OCC#C)c1.[Br-] [Compound 3, (E)‐3‐{3‐[2,4‐Bis(prop‐2‐yn‐1‐yloxy)phenyl]‐3‐oxoprop‐1‐en‐1‐yl}‐1‐octylpyridin‐1‐ium bromide] | 1.5 | 17.7 |  | 4.3
C#CCOc1ccc(C(=O)/C=C/c2ccc[n+](CCCCCC[n+]3cccc(/C=C/C(=O)c4ccc(OCC#C)cc4OCC#C)c3)c2)c(OCC#C)c1.[Br-].[Br-] [Compound 10, 1,1′‐(Hexane‐1,6‐diyl)bis{3‐[(E)‐3‐(2,4‐bis‐prop‐2‐yn‐1‐yloxyphenyl)‐3‐oxoprop‐1‐en‐1‐yl]pyridin‐1‐ium} bromide] | > 1 | > 2 |  | > 2
C#CCOc1ccc(C(=O)/C=C/c2ccc[n+](CCCCCCCCCCCC)c2)c(OCC#C)c1.[Br-] [Compound 5, (E)‐3‐{3‐[2,4‐Bis(prop‐2‐yn‐1‐yloxy)phenyl]‐3‐oxoprop‐1‐en‐1‐yl}‐1‐dodecylpyridin‐1‐ium bromide] | 8.9 | 8.6 | 2.4 to 15.3 | 2.4
C#CCOc1ccc(C(=O)/C=C/c2cccnc2)c(OCC#C)c1 [Compound 1] | < 1 | < 1 |  | < 1
Br.C#CCOc1ccc(C(=O)/C=C/c2cccnc2)c(OCC#C)c1 [Compound 9, (E)‐3‐{3‐[2,4‐Bis(prop‐2‐yn‐1‐yloxy)phenyl]‐3‐oxoprop‐1‐en‐1‐yl}pyridin‐1‐ium bromide] | < 1 | < 1 |  | < 1
C#CCOc1ccc(C(=O)/C=C/c2ccc[n+](CCCCCCCCCCCCCCCCCC)c2)c(OCC#C)c1.[Br-] [Compound 8, (E)‐3‐{3‐[2,4‐Bis(prop‐2‐yn‐1‐yloxy)phenyl]‐3‐oxoprop‐1‐en‐1‐yl}‐1‐octadecylpyridin‐1‐ium bromide] | < 1 | < 1 |  | < 1
C#CCOc1ccc(C(=O)/C=C/c2ccc[n+](CCCCCC)c2)c(OCC#C)c1.[Br-] [Compound 2, (E)‐3‐{3‐[2,4‐Bis(prop‐2‐yn‐1‐yloxy)phenyl]‐3‐oxoprop‐1‐en‐1‐yl}‐1‐hexylpyridin‐1‐ium bromide] | > 1 | > 2 |  | > 1
C#CCOc1ccc(C(=O)/C=C/c2ccc[n+](CCCCCCCCCCCCCCCC)c2)c(OCC#C)c1 [Compound 7, (E)‐3‐{3‐[2,4‐Bis(prop‐2‐yn‐1‐yloxy)phenyl]‐3‐oxoprop‐1‐en‐1‐yl}‐1‐hexadecylpyridin‐1‐ium] | < 1 | 1.3 |  | < 1
